PubChem BioAssay AID1259414, Drosophila RNAi Screening Center | 2018
In all, the deposit lists about 24,000 reagents; this is a random part of those with a known target gene and a result. In the full data, about 1,210 (5%) were called active. 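Inactive calls also include excluded dsRNAs with several or no targets, genes unexpressed in JW18, and well A1, regardless of score.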 The numbers tell different reagents against one gene apart. Names joined by + are all predicted targets of the reagent.

- Aim: 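Genome-wide screen for host control of endosymbiont load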 (primary screen)
- System: Drosophila JW18 cells infected with Wolbachia
- Reagents: long dsRNA against Drosophila genes, 0.25 µg dsRNA per well of a 384-well plate
- Duration: 5 days
- Challenge: cells persistently infected with Wolbachia before knock-down; no added drug
- Measurement: 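Imaged fluorescence in situ signal for Wolbachia 23S rRNA per DAPI-counted host cell, given as a robust z-score within each plate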
- Reading the numbers: Wolbachia per cell robust z: higher = more Wolbachia per host cell than the plate typical
- Call rule: 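Hit when robust z is 1.5 or more, or -1.5 or less, in at least two of three replicates; excludes dsRNAs with several or no targets, genes not expressed in JW18 and well A1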

| target gene | reagent no. | Wolbachia per cell robust z, rep 1 | Wolbachia per cell robust z, rep 2 | Wolbachia per cell robust z, rep 3 | activity call |
| --- | --- | --- | --- | --- | --- |
| geminin | 1 | 2.45 | -3.07 | 3.33 | active |
| geminin | 2 | 3.56 | 3.22 | 4.5 | active |
| CR33315 | 1 | 0.676 | -0.0279 | 0.638 | inactive |
| CR33315 | 2 | 1.15 | -0.416 | -1.49 | inactive |
| ewg | 1 | -0.906 | -5.51 | -0.493 | inactive |
| ewg | 2 | -0.119 | -0.738 | -1.89 | inactive |
| p-cup | 1 | -4.3 | 0.0576 | 0.497 | inactive |
| CG15147 | 1 | 1.8 | 0.231 | 0.117 | inactive |
| CG15147 | 2 | 1.82 | -1.82 | 1.69 | inactive |
| CG15147 | 3 | -0.0132 | 0.501 | 0.59 | inactive |
| CG5217 | 1 | -0.516 | -0.625 | 0.605 | inactive |
| LysB + LysC + LysD | 1 | 0.6 | 0.48 | -0.161 | inactive |
| CG17350 | 1 | -1.39 | -0.102 | 0.362 | inactive |
| Keap1 | 1 | -1.1 | -0.254 | 1.14 | inactive |
| Keap1 | 2 | 1.4 | 0.644 | 0.555 | inactive |
| CG9331 | 1 | 1.68 | -1.23 | 1.24 | inactive |
| CG9331 | 2 | -0.229 | -0.313 | -0.403 | inactive |
| Jon25Bii | 1 | -6.54 | 0.782 | -0.537 | inactive |
| Jon25Bii | 2 | -2.7 | 0.248 | 0.21 | inactive |
| psh | 1 | 0.257 | 0.566 | -0.627 | inactive |
| psh | 2 | -0.342 | -1.06 | -1.8 | inactive |
| mgr | 1 | 0.777 | 0.875 | 0.692 | inactive |
| CG15882 | 1 | -0.561 | -1 | 0.415 | inactive |
| Polr3A | 1 | 0.11 | 0.543 | 1.25 | inactive |
| Fancl | 1 | -0.0985 | -5.46 | -0.168 | inactive |
| CG43271 | 1 | 0.429 | -1.97 | -0.26 | inactive |
| CG43355 + sala | 1 | 0.0163 | 0.936 | 0.645 | inactive |
| Pbp95 | 1 | 0.885 | -0.17 | -0.342 | inactive |
| Pbp95 | 2 | -0.347 | 0.479 | 0.739 | inactive |
